A mixed list of measured activities; the numbers were collected in NIAID ChemDB.

All rows: whole-cell or culture tests; agent: Mycobacterium tuberculosis

a–b is a range or a potency band. MIC50, MIC90 and the like: level of inhibition, or share of isolates inhibited. MIC bound: limit read from a one-dose screen. ECn is the concentration giving n% inhibition of infection, replication or growth. Neighbouring rows are from separate reports. Inhibition is in % at the dose shown (toxicity tests: loss of growth or viability). An empty or dashed field is not shown.

SMILES,method,changes,setting,strain,endpoint,tested at,value
CC(C)C1=CC[C@]2(C)[C@H](O)C[C@]3(C)C[C@@H]4O[C@]4(C)CC[C@H]3[C@H]12,-,-,-,H37Rv,inhibition,6.25 µg/mL,0%
CCOP(=O)(OCC)/C(C#N)=C\c1cccn1C(C)C,BACTEC,-,-,H37Rv,inhibition,12.5 µg/mL,0%
CO[C@H]1/C=C/O[C@@]2(C)Oc3c(C)c(O)c4c(O)c(c5c(c4c3C2=O)NC2(CCN(CC(C)C)CC2)N=5)=NC(=O)/C(C)=C\C=C\[C@H](C)[C@H](O)[C@@H](C)[C@@H](O)[C@@H](C)[C@H](OC(C)=O)[C@@H]1C,-,-,-,N-2,MIC,-,2.5 µg/mL
N=C1CSC2=NC3=C(CCC/C3=C\c3ccccc3)C(c3ccccc3)N12,resazurin,-,-,H37Rv,MIC bound,-,>6.25 µg/mL
CC(C)OC(=O)Nc1c(C#N)[n+]([O-])c2ccccc2[n+]1[O-],-,-,-,H37Rv,inhibition,6.25 µg/mL,97%
O=C(COc1ccccc1)N/N=C1\CCOc2ccccc21,-,-,-,H37Rv,inhibition,12.5 µg/mL,50–64%
CCOP(=O)(CCC(O)CNc1nc(N)nc(Cl)c1N=Nc1ccc(Cl)cc1)OCC,resazurin,-,-,H37Rv,inhibition,6.25 µg/mL,11%
O=C(Nc1nc(-c2ccccc2)cs1)c1cc(/C=C/c2ccc(-c3ccc([N+](=O)[O-])s3)s2)nc2ccccc12,fluorescence,-,-,H37Rv,MIC,-,6.25 µg/mL
CCc1c2c(nc3ccc(OCc4ccccc4C(F)(F)F)cc13)-c1cc3c(c(=O)n1C2)COC(=O)C3(O)CC,resazurin,Extensively drug-resistant,-,XDR,MIC,-,11.32 µM
CC(=O)Nc1ccc(/C=N/NC(N)=S)cc1F,resazurin,Kanamycin-resistant,-,H37Rv,MIC90,-,<0.1 µg/mL
CCNC(=S)S,BACTEC,-,-,H37Rv,MIC,-,≥12.5 µg/mL
CCCCCCCCCCCNCCNCCc1ccccc1,-,-,-,-,MIC,-,25 µM
CC(C)c1cnc(C(=O)/C=C/c2ccccc2Br)cn1,absorbance,-,-,H37Rv,MIC,-,12.5 µg/mL
NNC(=O)c1ccncc1,fluorescence,-,-,H37Rv,MIC,-,0.025 µg/mL
CC(C)c1cnc(C(=O)/C=C/c2ccc(Cl)cc2)cn1,absorbance,-,-,H37Rv,MIC,-,12.5 µg/mL
Cc1ccc(-n2cc(Cn3nc(-c4ccccc4)c4c3CCN(C(=O)Nc3ccccc3)C4)nn2)cc1,visual reading,-,-,H37Rv,MIC,-,25.53 µM
CN(C)CCCNC(=O)Nc1c(C#N)[n+]([O-])c2ccccc2[n+]1[O-],-,-,-,H37Rv,inhibition,6.25 µg/mL,90%
CCCCC(CC)CN1CN(CC(CC)CCCC)CC(C)(NCCNC(C)CCc2ccccc2)C1,-,-,-,-,MIC,-,25 µM
NCC[C@H](O)C(=O)N[C@@H]1C[C@H](N)[C@@H](O[C@H]2O[C@H](CN)[C@@H](O)[C@H](O)[C@H]2O)[C@H](O)[C@H]1O[C@H]1O[C@H](CO)[C@@H](O)[C@H](N)[C@H]1O,-,-,-,30 isolates/HIV+,MIC90,-,>64 µg/mL
Cc1cc2nc(N)c(C#N)nc2cc1C,-,-,-,H37Rv,MIC,-,>12.5 µg/mL
NNC(=O)c1ccncc1,broth dilution,INH RIF STR resistant,14 d,9449/2006,MIC,-,16 µM
Cc1ccc(NC(=O)c2cc(/C=C/c3cccs3)nc3ccc(C)cc23)cc1,fluorescence,-,-,H37Rv,MIC,-,>6.25 µg/mL
COC(=O)C(C(=O)C(=O)Nc1c(Cl)cc([N+](=O)[O-])cc1Cl)c1csc(-n2nc(C3=CCCCC3)cc2-c2ccccc2)n1,resazurin,-,-,H37Rv,inhibition,6.25 µg/mL,-13%
CC[C@H]1OC(=O)[C@H](C)[C@@H](O[C@H]2C[C@@](C)(OC)[C@@H](O)[C@H](C)O2)[C@H](C)[C@@H](O[C@@H]2O[C@H](C)C[C@H](N(C)C)[C@H]2O)[C@](C)(OC)C[C@@H](C)C(=O)[C@H](C)[C@@H](O)[C@]1(C)O,-,-,-,30 isolates/HIV+,MIC50,-,4 µg/mL
Cc1ccc2nc(N)c(C#N)nc2c1,-,-,-,H37Rv,inhibition,6.25 µg/mL,17%
c1ccc(C(CCNCCNCC23CC4CC(CC(C4)C2)C3)c2ccccc2)cc1,-,-,-,H37Rv,MIC,-,7.8 µM
C[C@H]1C=C[C@H]([C@H](N)C(=O)O)O1,BACTEC,-,-,H37Rv,MIC bound,-,>12.8 µg/mL
C[C@H](NCCNCCC(c1ccccc1)c1ccccc1)C1CCCCC1,-,-,-,H37Rv,MIC,-,15.6 µM
CC1=C(O)C(C)(Cc2cccc(C(=O)c3ccccc3)c2)SC1=O,-,-,-,H37Rv,MIC90,-,128 µM
COc1cc2c(cc1O)C(c1cc(O)c(O)c(OC)c1)C(O)(C(=O)O)C(CO)C2O,BACTEC,-,-,H37Rv,inhibition,12.8 µg/mL,12%
CC(=O)Nc1ccc(/C=N/NC(N)=S)cc1,resazurin,-,-,H37Rv,MIC,-,2.5 µg/mL
O=C(Nc1ccccc1)N1CCc2c(c(-c3ccccc3)nn2Cc2cn(-c3ccc(F)c(Cl)c3)nn2)C1,visual reading,-,-,H37Rv,MIC,-,105 µM
Cc1csc([C@](C)(O)c2nnc(Nc3ccn(Cc4c(F)cccc4F)n3)s2)n1,-,-,-,G96V,MIC,-,>25 µg/mL
COc1cccc(-n2cc(Cn3nc(-c4ccccc4)c4c3CCN(C(=O)Nc3ccccc3)C4)nn2)c1,visual reading,-,-,H37Rv,MIC,-,98.89 µM
Fc1ccc(CN2COc3c(cc(Cl)c4cccnc34)C2)cc1,-,-,-,H37Rv,MIC bound,-,>6.25 µg/mL
CCc1c2c(nc3ccc(OCc4ccccc4Cl)cc13)-c1cc3c(c(=O)n1C2)COC(=O)C3(O)CC,resazurin,-,-,H37Rv,MIC,-,48.36 µM
CO[C@H]1/C=C/O[C@@]2(C)Oc3c(C)c(O)c4c(O)c(c(/C=N/N5CCN(C)CC5)c(O)c4c3C2=O)NC(=O)/C(C)=C\C=C\[C@H](C)[C@H](O)[C@@H](C)[C@@H](O)[C@@H](C)[C@H](OC(C)=O)[C@@H]1C,resazurin,-,-,H37Rv,MIC,-,0.0075 µg/mL
C=CCn1c(C23CC4CC(CC(C4)C2)C3)n[nH]c1=S,BACTEC,-,-,H37Rv,MIC bound,-,>12.5 µg/mL
COc1ccc2cc1-c1cc(ccc1O)C[C@H]1c3cc4c(cc3CCN1C)Oc1c(OC)cc3c(c1O4)[C@H](C2)N(C)CC3,resazurin,-,-,H37Rv-PZA-R ATCC 35828,MIC,-,6.2 µg/mL
COC(=O)c1cn(Cc2ccccc2)c(/C=C(\SC)c2ccccc2)c1C(=O)OC,resazurin,-,-,H37Rv,inhibition,6.25 µg/mL,-12%
O=C(/C=C/c1ccc(Cl)cc1)c1cnccn1,absorbance,-,-,H37Rv,MIC,-,50 µg/mL
O=c1c2c(oc3cccc(O)c13)CCC2O,resazurin,-,-,H37Rv,MIC,-,100.9 µM
Cc1c(CN2CCN(C)CC2)cc(-c2ccc(Cl)cc2)n1C1CCCCC1,-,-,-,H37Rv,MIC,-,<12.5 µg/mL
CC(C)=CCCC(C)CCC1(C)SC(=O)C(C)=C1O,-,-,-,H37Rv,MIC50,-,43 µM
C[C@H](O)[C@H]1C(=O)N2C(C(=O)O)=C(S[C@@H]3CN[C@H](C(=O)N(C)C)C3)[C@H](C)[C@H]12,fluorescence,-,-,H37Rv,MIC,-,2.5 µg/mL
CC1=C(O)C(C)(CCC(C)CCCC(C)C)SC1=O,-,-,-,H37Rv,MIC50,-,22 µM
COc1cc(NC(C)CCCN)c2ncccc2c1OC,BACTEC,-,-,H37Rv,MIC bound,-,>12.5 µg/mL
NNC(=O)c1ccncc1,-,-,-,M103L,MIC,-,0.03 µg/mL
CC1(C)S[C@@H]2[C@H](NC(=O)[C@H](N)c3ccccc3)C(=O)N2[C@H]1C(=O)O,fluorescence,-,-,H37Rv,MIC,-,>80 µg/mL
CC/C=C(C)/C=N/NC(=O)c1ccc[n+](C)c1.Cc1ccc(S(=O)(=O)O)cc1,BACTEC,-,-,H37Rv,inhibition,12.5 µg/mL,-5%
CCCCCCn1c(C)c(CN2CCN(C)CC2)c(CN2CCN(C)CC2)c1-c1ccc(Cl)cc1,-,-,-,103471,MIC,-,8 µg/mL
CCC1(O)C(=O)OCc2c1cc1n(c2=O)Cc2c-1nc1ccccc1c2OC,resazurin,-,-,H37Rv,MIC bound,-,>6.25 µg/mL
Cc1ccc2c(c1)[n+]([O-])c(C#N)c(NC(=O)OC(C)C)[n+]2[O-],-,-,-,H37Rv,MIC,-,<12.5 µg/mL
O=c1[nH][nH]c(=O)c2ccccc12,BACTEC,-,-,-,inhibition,0.5 µM,0%
O=C(Nc1ccccc1)c1cc(/C=C/c2cccs2)nc2ccccc12,fluorescence,-,-,H37Rv,MIC,-,>6.25 µg/mL
C/C(=N/NC(=S)N1CCN(c2ccccc2)CC1)c1cnccn1,resazurin,-,-,H37Rv,MIC bound,-,>6.25 µg/mL
COc1ccccc1CCNCCN(Cc1ccccc1)Cc1ccccc1,-,-,-,-,MIC,-,50 µM
Cc1cc(=O)cc2sc3c(C)cccc3nc1-2,resazurin,-,-,H37Rv,MIC,-,6.25 µg/mL
CC(C)(C)c1cnc(C(=O)/C=C/c2ccccc2F)cn1,absorbance,-,-,H37Rv,MIC,-,6.25 µg/mL
CCCCCCn1c(C)ccc1C,-,-,-,H37Rv,EC50,-,<12.5 µg/mL
O=c1oc2ccccc2c(O)c1C1=N/C(=N\N=C\c2ccc(Cl)cc2)SC1,BACTEC,-,-,H37Rv,MIC bound,-,>12.5 µg/mL
CC(C)Cc1cnc(C(=O)/C=C/c2ccc(Cl)cc2)cn1,absorbance,-,-,H37Rv,MIC,-,>25 µg/mL
c1ccc(C(CCNCCN[C@H]2C[C@@H]3CC[C@H]2C3)c2ccccc2)cc1,-,-,-,-,MIC,-,3.13 µM
O=C(Nc1nc(-c2ccc(Br)s2)cs1)c1cc(-c2cccs2)nc2ccccc12,fluorescence,-,-,H37Rv,MIC,-,>6.25 µg/mL
CCCCCCCCCCCCCCCCN(CCO)C[C@@H]1O[C@@H]2OC(C)(C)O[C@@H]2[C@H]2OC(C)(C)O[C@H]21,-,-,-,H37Rv,MIC,-,6.25 µg/mL
COc1cc(C=O)c(-c2cc3c(cc2C2(C)OCCS2)OCO3)c(OC)c1OC,BACTEC,-,-,H37Rv,MIC bound,-,>12.5 µg/mL
CC(C)c1ccc2c(c1)CC[C@H]1[C@](C)(CNCCN[C@H](CO)Cc3ccc(Cl)cc3)CCC[C@]21C,-,-,-,-,MIC,-,25 µM
CC(C)(C)c1cnc(C(=O)/C=C/c2ccc(F)cc2)cn1,absorbance,-,-,H37Rv,MIC,-,>25 µg/mL
O=C1C2SSC(C(=O)N2Cc2ccccc2)N1Cc1ccccc1,turbidity,-,-,-,EC50,-,2.3 µM
CCc1c2c(nc3ccc(OCc4ccc(I)cc4)cc13)-c1cc3c(c(=O)n1C2)COC(=O)C3(O)CC,resazurin,-,-,H37Rv,MIC,-,20.55 µM
Cn1c2c(F)cccc2c(=O)c2c(O)cc3c(c21)C=CC(C)(C)O3,BACTEC,-,-,H37Rv,MIC bound,-,>12.5 µg/mL
Fc1ccccc1CCNCCNC12CC3CC(CC(C3)C1)C2,-,-,-,-,MIC,-,50 µM
O=C(/C=C/c1ccccc1Cl)c1cnccn1,absorbance,-,-,H37Rv,MIC,-,6.25 µg/mL
CN[C@@H]1[C@H](O[C@H]2[C@H](O[C@H]3[C@H](O)[C@@H](O)[C@H](N=C(N)N)[C@@H](O)[C@@H]3N=C(N)N)O[C@@H](C)[C@]2(O)C=O)O[C@@H](CO)[C@H](O)[C@H]1O,-,-,-,N128,MIC,-,≥512 µg/mL
O=C(Nc1nc(-c2ccccc2)cs1)c1cc(-c2ccccc2)nc2ccccc12,fluorescence,-,-,H37Rv,MIC,-,>6.25 µg/mL
O=C(Nc1ccccc1)N1CCc2c(c(-c3ccccc3)nn2Cc2cn(-c3ccccc3Cl)nn2)C1,visual reading,-,-,H37Rv,MIC,-,196 µM
COc1ccc2cc1-c1cc(ccc1O)C[C@H]1c3cc4c(cc3CCN1C)Oc1c(OC)cc3c(c1O4)[C@@H](C2)N(C)CC3,resazurin,-,-,H37Rv-ETA-R ATCC 35830,MIC,-,3.1 µg/mL
C[C@@H](O)[C@@]1(C)C(=O)N2C(C(=O)O)=C(SCCN=CN)C[C@@]21C,fluorescence,-,-,H37Rv,MIC,-,2.5 µg/mL
CCCCCCCCCCCCN(CCO)C[C@@H]1O[C@@H]2OC(C)(C)O[C@@H]2[C@H]2OC(C)(C)O[C@H]21,-,-,-,H37Rv,MIC,-,3.12 µg/mL
Cc1ccc(-n2cc(Cn3nc(-c4ccccc4)c4c3CCN(C(=O)Nc3ccccc3)C4)nn2)cc1C,visual reading,-,-,H37Rv,MIC,-,199 µM
COc1ccc(CNCCNCCCCc2ccccc2)cc1OC,-,-,-,-,MIC,-,12.5 µM
C=C/C(C)=C/[C@@]1(C)SC(=O)C(C)=C1O,-,-,-,Isolate M306,MIC,-,20–40 µg/mL
O=C1C(Cl)=C(Nc2ccc(Cl)c(Cl)c2)C(=O)c2ccccc21,BACTEC,-,-,H37Rv,inhibition,12.5 µg/mL,-24%
CCCCCCn1c(C)cc(CN2CCOCC2)c1C,-,-,-,103471,MIC,-,8 µg/mL
CCOC(=O)Nc1c(C#N)[n+]([O-])c2ccccc2[n+]1[O-],-,-,-,H37Rv,MIC,-,<12.5 µg/mL